Measurements reported in PubChem BioAssay AID624099 (ICCB-Longwood, 2012).
Shown is a random part of about 21,000 deposited reagents. In the full data, 497 (2.4%) were called active. 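Higher z means weaker E2 silencing; only reporter increases were scored, and knock-downs that hurt cell survival may mask genuine repressor factors.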 Entries without a mark were called inactive.

Purpose: 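Host factors E2 relies on to silence an HPV18 LCR reporter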 (primary screen)
Cell system: human C33A cervical carcinoma cells (HPV-negative) stably expressing BPV1 E2 and an HPV18 LCR luciferase reporter
Reagents: siRNA pool against human genes, 40 nM
Duration: 72 h
Read-out: 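Per-well luciferase luminescence, z-scored on each plate against the plate mean and SD with control wells left out, then averaged across three replicate plates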
Direction: mean z-score and z-score: higher = stronger reporter signal, weaker E2 silencing
Active means: 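Hit if mean z-score reaches 2 and two or more of three replicate z-scores also reach 2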

| target | mean z-score | z-score, replicate A | z-score, replicate B | z-score, replicate C |
| --- | --- | --- | --- | --- |
| INCA1 (GeneID 388324) | 0.49 | 0.76 | 0.56 | 0.16 |
| ZSWIM2 (GeneID 151112) | 0.35 | 0.74 | 0.13 | 0.17 |
| SFTA2 (GeneID 389376) | 0.46 | 0.54 | 0.3 | 0.55 |
| TUSC7 (GeneID 285194) | 0.42 | 0.4 | 0.25 | 0.61 |
| RPTOR (GeneID 57521) | -0.16 | -0.16 | 0.03 | -0.35 |
| IFITM3P2 (GeneID 144383) | -0.34 | -0.55 | 0.01 | -0.49 |
| TSPO (GeneID 706) | -0.18 | -0.42 | -0.04 | -0.08 |
| TRIM10 (GeneID 10107) | -1.44 | -1.38 | -1.41 | -1.54 |
| MRO (GeneID 83876) | -0.65 | -0.65 | -0.78 | -0.53 |
| NRIP3 (GeneID 56675) | -0.2 | -0.15 | -0.21 | -0.23 |
| SELENOI (GeneID 85465) | -1.06 | -0.92 | -1.14 | -1.14 |
| LOC387764 (retired record) (GeneID 387764) | 0.72 | 0.21 | 0.78 | 1.19 |
| CXCL3 (GeneID 2921) | 0.57 | 0.44 | 0.6 | 0.68 |
| BRF1 (GeneID 2972) | -0.43 | -0.67 | -0.12 | -0.51 |
| EDRF1 (GeneID 26098) | -0.23 | -0.28 | -0.39 | -0.04 |
| TRAPPC2L (GeneID 51693) | -0.59 | -0.28 | -0.5 | -0.99 |
| ASB13 (GeneID 79754) | -0.88 | -0.61 | -1.03 | -1 |
| KRABD2 (GeneID 124751) | -1.03 | -1 | -1.07 | -1.01 |
| SUGT1 (GeneID 10910) | 0.61 | 0.76 | 0.03 | 1.04 |
| LOC389908 (retired record) (GeneID 389908) | -0.93 | -1.28 | -0.82 | -0.68 |

Just “z-score, replicate A”, for 9 of the entries above:
INCA1 (GeneID 388324): 0.76
ZSWIM2 (GeneID 151112): 0.74
SFTA2 (GeneID 389376): 0.54
TUSC7 (GeneID 285194): 0.4
RPTOR (GeneID 57521): -0.16
IFITM3P2 (GeneID 144383): -0.55
TSPO (GeneID 706): -0.42
TRIM10 (GeneID 10107): -1.38
MRO (GeneID 83876): -0.65

The results go on.
| target | mean z-score | z-score, replicate A | z-score, replicate B | z-score, replicate C |
| --- | --- | --- | --- | --- |
| IL1RAPL2 (GeneID 26280) | 1.04 | 1.23 | 0.83 | 1.06 |
| IQSEC3 (GeneID 440073) | -0.03 | 0.1 | 0.01 | -0.19 |
| TUBB2A (GeneID 7280) | 0.52 | 0.48 | 0.49 | 0.6 |
| MTAP (GeneID 4507) | -0.24 | -0.38 | 0.02 | -0.38 |
| EIF3E (GeneID 3646) | -2.56 | -2.47 | -2.96 | -2.25 |
| NDE1 (GeneID 54820) | -1.59 | -1.47 | -1.61 | -1.69 |
| GIMAP6 (GeneID 474344) | 1.89 | 1.74 | 2.38 | 1.55 |
| LOC388807 (retired record) (GeneID 388807) | -0.4 | -0.45 | -0.46 | -0.29 |
| RPS6KL1 (GeneID 83694) | -0.52 | -0.18 | -0.74 | -0.64 |
| EI24 (GeneID 9538) | 0.11 | 0.51 | -0.13 | -0.04 |
| DDX20 (GeneID 11218) | -0.14 | 0.04 | -0.29 | -0.18 |
| YY2 (GeneID 404281) | -0.24 | -0.75 | 0.24 | -0.2 |
| OARD1 (GeneID 221443) | 0.08 | -0.14 | 0.14 | 0.24 |
| REN (GeneID 5972) | -0.08 | 0.07 | -0.05 | -0.26 |
| BUB3 (GeneID 9184) | 0.94 | 0.59 | 1.33 | 0.9 |
| DNAJB9 (GeneID 4189) | 0.76 | 0.9 | 0.76 | 0.63 |
| SERTAD3 (GeneID 29946) | -1.32 | -1.42 | -0.99 | -1.54 |
| GRID2 (GeneID 2895) | 0.44 | 0.36 | 0.5 | 0.46 |
| TG (GeneID 7038) | -0.04 | -0.07 | 0.09 | -0.14 |
| LOC400964 (retired record) (GeneID 400964) | 2.43 (active) | 2.92 | 2.25 | 2.11 |
| METTL1 (GeneID 4234) | -1.48 | -1.61 | -1.63 | -1.19 |
| ZNF681 (GeneID 148213) | 0.4 | 0.4 | 0.77 | 0.02 |
| DEFB106A (GeneID 245909) | -1.12 | -1.08 | -1.14 | -1.14 |
| MCF2L2 (GeneID 23101) | 0.18 | 0.07 | -0.03 | 0.49 |
| PRRG1 (GeneID 5638) | 1.26 | 1.13 | 1.34 | 1.31 |
| PDSS1 (GeneID 23590) | -0.18 | -0.35 | -0.1 | -0.08 |
| C12orf75 (GeneID 387882) | -0.82 | -1.26 | -0.8 | -0.4 |
| OR6A2 (GeneID 8590) | 0.28 | 0.34 | 0.27 | 0.22 |
| LOC387910 (retired record) (GeneID 387910) | -0.27 | -0.55 | -0.08 | -0.17 |
| RAG1 (GeneID 5896) | 0.57 | 0.53 | 0.67 | 0.51 |
| ETFDH (GeneID 2110) | -0.4 | -0.39 | -0.8 | 0 |
| ARMC2 (GeneID 84071) | -0.19 | -0.24 | -0.52 | 0.18 |
| ABCA4 (GeneID 24) | -0.83 | -0.62 | -0.81 | -1.07 |
| TBC1D29P (GeneID 26083) | -0.09 | -0.24 | 0.11 | -0.15 |
| CHD1L (GeneID 9557) | 1.04 | 0.9 | 1.36 | 0.84 |
| EXT1 (GeneID 2131) | 0.25 | 0.21 | 0.12 | 0.42 |
| ENAM (GeneID 10117) | -0.01 | -0.42 | -0.09 | 0.47 |
